A mixed list of measured activities; the numbers were collected in NIAID ChemDB.

All rows: cytotoxicity tests; cell line: VERO; read-out: CC50

CCn is the concentration with n% toxicity to the cells. Rows are shuffled and stem from different studies.

Cc1ccc2nc(C)c(C(=O)NCc3ccc(N4CCS(=O)(=O)CC4)cc3)n2c1 ; result: >32 µM
Cc1cn([C@H]2O[C@@H](CO)C=C2F)c(=O)[nH]c1=O ; result: >100 µM
COc1ccc(Cc2c(C)c(C#N)c3[nH]c4ccccc4n3c2=O)cc1 ; result: >64 µg/mL
Nc1ncnc2c1ncn2[C@@H]1O[C@@H](CO)C=C1F ; result: >100 µM
CCn1cc(C(=O)O)c(=O)c2cc(F)c(N3CCN(CC(=O)c4ccccc4)CC3)cc21 ; result: >10 µg/mL
COc1nsc(-c2ccccc2)c1C#N ; result: 25 µM
Cc1nc2ccc(Cl)cn2c1C(=O)NCc1ccc(N2CCC(c3ccc(OC(F)(F)F)cc3)CC2)cc1 ; result: >32 µM
CN(C)/C=C/c1c2c(nc3ccccc13)C(=O)c1ccccc1C2=O ; result: 5.9 µg/mL
O=C(Nc1cccc(Br)c1)c1cccc2[nH]c(-c3ccncc3)nc12 ; result: 8.24 µg/mL
Cc1c(N2CCc3ccccc3C2C(=O)NC(C)(C)C)c([N+](=O)[O-])cc2c(=O)c(C(=O)O)cn(C3CC3)c12 ; result: 121 µM
CN1c2c(-c3ccccc3)nn(CC(=O)N/N=C/c3ccc(Cl)cc3)c2-c2ccccc2S1(=O)=O ; result: 20.5 µM
O=C(CN1CCN(c2cc3c(cc2F)c(=O)c(C(=O)O)cn3C2CC2)CC1)c1ccc(Br)cc1 ; result: 6.5 µg/mL
CCc1nc2ccc(Cl)cn2c1C(=O)NCc1ccc(N2CCN(c3ccc(S(F)(F)(F)(F)F)cc3)CC2)cc1 ; result: >32 µM
Nc1nc(=O)n([C@H]2O[C@@H](CO)C=C2F)cc1F ; result: >100 µM
O=c1ccn([C@H]2O[C@@H](CO)C=C2F)c(=O)[nH]1 ; result: >100 µM
CCc1nc2ccc(Cl)cn2c1C(=O)NCc1ccc(S(F)(F)(F)(F)F)cc1 ; result: >32 µM
O=C(Nc1ccccc1F)c1cccc2[nH]c(-c3ccncc3)nc12 ; result: 12.3 µg/mL
O=c1ccn([C@@H]2O[C@@H](CO)C=C2F)c(=O)[nH]1 ; result: >100 µM
CCCCCCCCCCCCCCC[C@H](O)C[C@H](O)C[C@H](O)C[C@H]1CC=CC(=O)O1 ; result: 8.34 µg/mL
O=c1[nH]cnc2c1ncn2[C@H]1O[C@@H](CO)C=C1F ; result: >100 µM
CCOP(=O)(OCC)C1=NOC(Cn2cc(C)c(=O)[nH]c2=O)C1 ; result: >400 µM
CN1c2c(-c3ccccc3)nn(CC(=O)N/N=C/c3ccccc3Br)c2-c2ccccc2S1(=O)=O ; result: >100 µM
Cc1c(N2CCN(C)C(c3ccccc3)C2)c([N+](=O)[O-])cc2c(=O)c(C(=O)O)cn(C3CC3)c12 ; result: 135 µM
CN1c2c(-c3ccccc3)nn(CC(=O)N/N=C/c3cccc(Br)c3)c2-c2ccccc2S1(=O)=O ; result: >100 µM
Cc1c(N2CCN(C(=O)C3COc4ccccc4O3)CC2)c([N+](=O)[O-])cc2c(=O)c(C(=O)O)cn(C3CC3)c12 ; result: 117 µM
CN1c2c(-c3ccccc3)nn(CC(=O)N/N=C/c3ccc(Cl)cc3Cl)c2-c2ccccc2S1(=O)=O ; result: 88.9 µM
Cc1c(N2CCN(Cc3ccc4c(c3)OCO4)CC2)c([N+](=O)[O-])cc2c(=O)c(C(=O)O)cn(C3CC3)c12 ; result: 123 µM
COc1ccc(/C=N/NC(=O)Cn2nc(-c3ccccc3)c3c2-c2ccccc2S(=O)(=O)N3C)c(OC)c1OC ; result: 19.6 µM
CN(C)CCc1c2c(nc3ccccc13)C(=O)c1cccnc1C2=O ; result: 1.4 µg/mL
N#Cc1c(-c2ccccc2)s[nH]c1=S ; result: 60 µM
Cc1c(N2CCC3(CC2)OCCO3)c([N+](=O)[O-])cc2c(=O)c(C(=O)O)cn(C3CC3)c12 ; result: 146 µM
O=C(Nc1ccccc1)c1cccc2[nH]c(-c3ccccn3)nc12 ; result: 55.6 µg/mL
O=C(CN1CCN(c2cc3c(cc2F)c(=O)c(C(=O)O)cn3C2CC2)CC1)c1ccccc1 ; result: 51.8 µg/mL
Cc1c(N2CCN(C(=O)c3ccco3)CC2)c([N+](=O)[O-])cc2c(=O)c(C(=O)O)cn(C3CC3)c12 ; result: 134 µM
CN(C)/C=C/c1ccnc2c1C(=O)c1ccccc1C2=O ; result: 9.1 µg/mL
CCn1cc(C(=O)O)c(=O)c2cc(F)c(N3CCN(CC(=O)c4ccc(Br)cc4)CC3)cc21 ; result: 8.1 µg/mL
Cc1c(N2CCC(n3c(=O)[nH]c4cc(Cl)ccc43)CC2)c([N+](=O)[O-])cc2c(=O)c(C(=O)O)cn(C3CC3)c12 ; result: 116 µM
CC(=O)O[C@H]1C[C@](C)(O)/C=C/C[C@@H](C)/C=C/[C@@]2(C)CC[C@@H](C(C)(C)OC(C)=O)[C@H]12 ; result: 185 µM
CCCCCCCCCCCCCCC[C@H](O)CC[C@@H](O)CCC[C@H]1CC=CC(=O)O1 ; result: 0.8 µg/mL
O=C(Nc1cccc(O)c1)c1cccc2[nH]c(-c3ccncc3)nc12 ; result: 5.9 µg/mL
CSc1nsc(-c2cccc(Cl)c2)c1C#N ; result: 10 µM
Cc1cn2c(C(=O)NCc3ccc(N4CCN(c5ccc(C(F)(F)F)cn5)CC4)c(F)c3)c(C)nc2s1 ; result: >32 µM
O=C(CN1CCN(c2cc3c(cc2F)c(=O)c(C(=O)O)cn3C2CC2)CC1)c1ccc(F)cc1 ; result: >10 µg/mL
Cc1cn([C@@H]2O[C@@H](CO)C=C2F)c(=O)[nH]c1=O ; result: >100 µM
CCCCCCCCCCCCCCC[C@H](O)CCCC[C@H](O)C[C@H]1CC=CC(=O)O1 ; result: 1.8 µg/mL
COc1c(N2CCNC(C)C2)c(F)cc2c(=O)c(C(=O)O)cn(C3CC3)c12 ; result: >155.3 µM
CCCCCCCCCCCCCCC[C@H](O)C[C@H](O)CCC[C@H]1CC=CC(=O)O1 ; result: 3.02 µg/mL
CCOP(=O)(OCC)C1=NOC(Cn2cc(F)c(=O)[nH]c2=O)C1 ; result: >400 µM
N#Cc1c(Cl)nsc1Cl ; result: 4 µM
CCCCCCCCCCCCCCC[C@H](O)CCC[C@H]1CC=CC(=O)O1 ; result: 2.88 µg/mL

Repeating the first 3 entries:

structure,result
Cc1ccc2nc(C)c(C(=O)NCc3ccc(N4CCS(=O)(=O)CC4)cc3)n2c1,>32 µM
Cc1cn([C@H]2O[C@@H](CO)C=C2F)c(=O)[nH]c1=O,>100 µM
COc1ccc(Cc2c(C)c(C#N)c3[nH]c4ccccc4n3c2=O)cc1,>64 µg/mL